Compound potency records, mixed from different reports. Data source: NIAID ChemDB in PubChem.

Shared fields: whole-cell or culture tests; organism: Candida albicans; measure: zone

An empty or dashed field is not shown. a–b is a range or a potency band. Zone: diameter of growth inhibition. Conditions beyond the fields shown may differ between rows.

structure | dose | read by | strain or isolate | value
CC(C)=CCOc1ccc(C2CC(=O)c3ccc(O)cc3O2)cc1 | 100 µg/mL | agar diffusion / agar | ATCC 14053 | 0 mm
CC(=O)Oc1c(-c2ccc(C)cc2)oc2ccccc2c1=O | 100 µg/mL | agar diffusion |  | 15 mm
CC(C)(CN=C/C=C/c1ccccc1[N+](=O)[O-])CN=C/C=C/c1ccccc1[N+](=O)[O-] | 5 mg/disc | agar diffusion |  | 21 mm
O=C1NC(=S)SC1C(O)c1ccc(Cl)cc1Cl | 100 mg/mL | agar diffusion / agar | ATCC 2091 | 10–15 mm
CCO[C@@H]1C[C@@H]([C@H](C)[C@H]2CC[C@]3(C)C4=C(CC[C@@]23C)[C@]2(C)CC[C@H](O)C(C)(C)[C@H]2CC4)CC[C@@H]1C | 1 µg/disc | agar diffusion / agar | MTCC 183 | 16 mm
CC[C@H]1OC(=O)[C@H](C)[C@@H](O[C@H]2C[C@@](C)(OC)[C@@H](O)[C@H](C)O2)[C@H](C)[C@@H](O[C@@H]2O[C@H](C)C[C@H](N(C)C)[C@H]2O)[C@](C)(O)C[C@@H](C)C(=O)[C@H](C)[C@@H](O)[C@]1(C)O | 15 µg | agar diffusion | ATCC 10231 | 6 mm
COc1ccc(-c2oc3ccc(Cl)cc3c(=O)c2OC(C)=O)cc1 | 100 µg/mL | agar diffusion |  | 20 mm
CN(C)[C@@H]1C(=O)C(C(N)=O)=C(O)[C@@]2(O)C(=O)C3=C(O)c4c(O)cccc4[C@@](C)(O)[C@H]3C[C@@H]12 | 30 µg | agar diffusion | ATCC 10231 | 6 mm
O=C1NC(=S)SC1C(Sc1ccccc1)c1ccc2ccccc2c1 | 100 mg/mL | agar diffusion / agar | ATCC 2091 | 10–15 mm
Cc1ccc(N2NOC(=O)C2S(=O)(=O)Nc2nc(-c3ccc(Cl)cc3)cs2)cc1 | 250 µg/mL | agar diffusion | MTCC 227 | 24 mm
CCC(C)n1ncn(-c2ccc(N3CCN(c4ccc(OC[C@H]5CO[C@](Cn6cncn6)(c6ccc(Cl)cc6Cl)O5)cc4)CC3)cc2)c1=O | 100 mg/mL | agar diffusion / agar | ATCC 2091 | >21 mm
C[C@@H]1[C@H](O)[C@@H](C)/C=C/C=C/CC/C=C/C=C/C=C/C=C/C(O[C@H]2O[C@H](C)[C@@H](O)[C@H](N)[C@@H]2O)CC2O[C@](O)(CC(O)C(O)CCC(O)CC(O)CC(O)CC(=O)O[C@H]1C)CC(O)C2C(=O)O | 100 µg/mL | agar diffusion / agar | ATCC 14053 | 0 mm
CCCCc1nc(Cl)c(-c2cc(-c3ccc4oc5ccccc5c4c3)nc3c2C(=O)c2ccccc2-3)n1Cc1ccccc1 | 10 µg/disc | agar diffusion | MTCC 7253 | 10 mm
CCN(CC)N1C(=O)C(C(Sc2ccccc2)c2cccc(C)c2)SC1=S | 100 mg/mL | agar diffusion / agar | ATCC 2091 | 16–20 mm
COc1cc(C2CC(=O)c3c(O)cc(O)cc3O2)ccc1OCC=C(C)C | 100 µg/mL | agar diffusion / agar | ATCC 14053 | 0 mm
CC(=O)Oc1c(-c2ccc(N(C)C)cc2)oc2ccccc2c1=O | 100 µg/mL | agar diffusion |  | 19 mm
CCCCc1nc(Cl)c(-c2cc(-c3cn(S(=O)(=O)c4ccc(C)cc4)c4ccccc34)nc3c2C(=O)c2ccccc2-3)n1Cc1ccccc1 | 10 µg/disc | agar diffusion | MTCC 7253 | 13 mm
CN(C)c1ccc(-c2oc3ccc(Cl)cc3c(=O)c2O)cc1 | 100 µg/mL | agar diffusion |  | 13 mm
C[C@@H]1[C@H](O)[C@@H](C)/C=C/C=C/C=C/C=C/C=C/C=C/C=C/[C@H](O[C@@H]2O[C@H](C)[C@@H](O)[C@H](N)[C@@H]2O)C[C@@H]2O[C@](O)(C[C@@H](O)C[C@@H](O)[C@H](O)CC[C@@H](O)C[C@@H](O)CC(=O)O[C@H]1C)C[C@H](O)[C@H]2C(=O)O | 20 µg/disc | agar diffusion / agar | MTCC 183 | 0 mm
CCCCc1nc(Cl)c(-c2cc(-c3ccc(Br)s3)nc3c2C(=O)c2ccccc2-3)n1Cc1ccccc1 | 10 µg/disc | agar diffusion | MTCC 7253 | 9 mm
O=C1NC(=S)SC1C(Sc1ccccc1)c1ccccc1 | 100 mg/mL | agar diffusion / agar | ATCC 2091 | 10–15 mm
C(/C=C/c1ccccc1)=NCCNCCN=C/C=C/c1ccccc1.[Cl][Hg][Cl] | 20000 µg/mL | agar diffusion |  | 27 mm
CC(=O)Oc1c(-c2ccccc2)oc2ccc(Cl)cc2c1=O | 100 µg/mL | agar diffusion |  | 17 mm
Clc1ccc(C(Cn2ccnc2)OCc2ccsc2Cl)c(Cl)c1 | 0.5 mg/mL | agar diffusion / agar |  | 22 mm
CCCCc1nc(Cl)c(-c2cc(-c3ccc(Br)cc3)nc3c2C(=O)c2ccccc2-3)n1Cc1ccccc1 | 10 µg/disc | agar diffusion | MTCC 7253 | 10 mm
Cc1ccc(N2NOC(=O)C2S(=O)(=O)Nc2nc3cc(F)ccc3s2)cc1 | 250 µg/mL | agar diffusion | MTCC 227 | 21 mm
CC(=O)Oc1c(-c2ccc(Cl)cc2)oc2ccccc2c1=O | 100 µg/mL | agar diffusion |  | 17 mm
Cc1ccc(N2NOC(=O)C2S(=O)(=O)Nc2ccc(-n3c(-c4ccc(Cl)cc4)nc4ccccc4c3=O)cc2)cc1 | 250 µg/mL | agar diffusion | MTCC 227 | 24 mm
CCN(CC)N1C(=O)/C(=C/c2ccccc2)SC1=S | 100 mg/mL | agar diffusion / agar | ATCC 2091 | 16–20 mm
Cc1ccc(N2NOC(=O)C2S(=O)(=O)Nc2ccc(-n3c(-c4ccccc4)nc4ccccc4c3=O)cc2)cc1 | 250 µg/mL | agar diffusion | MTCC 227 | 20 mm
CC(=O)OCC1=C(C(=O)O)N2C(=O)[C@@H](NC(=O)Cc3cccs3)[C@H]2SC1 | 30 µg | agar diffusion | WILD TYPE | 6 mm
CCN(CC)N1C(=O)C(C(Sc2ccccc2)c2ccc(Br)cc2)SC1=S | 100 mg/mL | agar diffusion / agar | ATCC 2091 | 4–9 mm
CC(=O)Oc1c(-c2ccc(N(C)C)cc2)oc2ccc(Cl)cc2c1=O | 100 µg/mL | agar diffusion |  | 19 mm
O=C1NC(=S)S/C1=C\c1ccc[nH]1 | 100 mg/mL | agar diffusion / agar | ATCC 2091 | 5–9 mm
O=c1c(O)c(-c2ccc(Cl)cc2)oc2ccc(Cl)cc12 | 100 µg/mL | agar diffusion |  | 15 mm

Repeating the first 3 entries:

| structure | dose | read by | strain or isolate | value |
|---|---|---|---|---|
| CC(C)=CCOc1ccc(C2CC(=O)c3ccc(O)cc3O2)cc1 | 100 µg/mL | agar diffusion / agar | ATCC 14053 | 0 mm |
| CC(=O)Oc1c(-c2ccc(C)cc2)oc2ccccc2c1=O | 100 µg/mL | agar diffusion |  | 15 mm |
| CC(C)(CN=C/C=C/c1ccccc1[N+](=O)[O-])CN=C/C=C/c1ccccc1[N+](=O)[O-] | 5 mg/disc | agar diffusion |  | 21 mm |